Source: PubChem BioAssay AID624099 (ICCB-Longwood, 2012)

- Screen: 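Host factors E2 relies on to silence an HPV18 LCR reporter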 (primary screen)
- Cell system: human C33A cervical carcinoma cells (HPV-negative) stably expressing BPV1 E2 and an HPV18 LCR luciferase reporter
- Reagent: siRNA pool against human genes, 40 nM
- Time to read-out: 72 h
- Measured: 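HPV18 LCR reporter light per well, converted to plate-wise z-scores that exclude control wells, and averaged over triplicate plates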
- Scale: mean z-score and z-score: higher = stronger reporter signal, weaker E2 silencing
- Rule for the call: 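Mean z ≥ 2 together with z ≥ 2 in two or more of the three replicates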
Shown is a random part of about 21,000 deposited reagents. 497 of all reagents (2.4%) count as active. 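Higher z means weaker E2 silencing; only reporter increases were scored, and knock-downs that hurt cell survival may mask genuine repressor factors.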 The numbers tell different reagents against one gene apart. Reagent sequences are not shown.

target gene | reagent | mean z-score | z-score, replicate A | z-score, replicate B | z-score, replicate C | call
TEAD1 (TEA domain transcription factor 1) | 1 | -1.28 | -1.16 | -1.33 | -1.34 | inactive
LINC00691 (long independently transcribed non-coding RNA 691) | 1 | -0.09 | 0.3 | -0.24 | -0.32 | inactive
GPR45 (G protein-coupled receptor 45) | 1 | -1.38 | -1.49 | -1.33 | -1.33 | inactive
ANKRD23 (ankyrin repeat domain 23) | 1 | -1.49 | -1.59 | -1.39 | -1.47 | inactive
B3GNT8 | 1 | 1.59 | 1.44 | 1.75 | 1.58 | inactive
PLD6 (phospholipase D family member 6) | 1 | -1.35 | -1.4 | -1.31 | -1.35 | inactive
NXF5 (nuclear RNA export factor 5) | 1 | -1.69 | -1.61 | -1.59 | -1.87 | inactive
GBP7 (guanylate binding protein 7) | 1 | -0.21 | -0.26 | -0.34 | -0.03 | inactive
MAPRE3 (microtubule associated protein RP/EB family member 3) | 1 | -0.73 | -0.63 | -1.05 | -0.49 | inactive
PIERCE1 (piercer of microtubule wall 1) | 1 | -0.28 | -0.63 | -0.37 | 0.16 | inactive
SCML4 (Scm polycomb group protein like 4) | 1 | 1.1 | 1.37 | 0.95 | 0.99 | inactive
TEX14BP (testis expressed 14B, pseudogene) | 1 | -1.28 | -0.67 | -1.99 | -1.17 | inactive
SMARCD1 (SWI/SNF related BAF chromatin remodeling complex subunit D1) | 1 | -0.77 | -0.68 | -0.79 | -0.82 | inactive
PDYN (prodynorphin) | 1 | -1.02 | -0.96 | -1.08 | -1.02 | inactive
SPATA31J1 (SPATA31 subfamily J member 1) | 1 | -0.39 | -0.24 | -0.79 | -0.14 | inactive
SYT7 (synaptotagmin 7) | 1 | 0.2 | 0.22 | 0.21 | 0.17 | inactive
TRIM7 (tripartite motif containing 7) | 1 | -0.24 | -0.39 | -0.3 | -0.04 | inactive
ACVR1B (activin A receptor type 1B) | 1 | 0.13 | -0.33 | 0.57 | 0.17 | inactive
TMEM128 (transmembrane protein 128) | 1 | 0.46 | 0.54 | 0.34 | 0.5 | inactive
C14orf81 (retired record) | 1 | 1.72 | 1.91 | 1.68 | 1.55 | inactive
PLEKHJ1 (pleckstrin homology domain containing J1) | 1 | 0.12 | 0.54 | 0.08 | -0.27 | inactive
LINC00632 (long independently transcribed non-coding RNA 632) | 1 | 1.46 | 1.17 | 1.52 | 1.69 | inactive
SPDYA (speedy/RINGO cell cycle regulator family member A) | 1 | -0.26 | -0.33 | 0 | -0.47 | inactive
CDKN1C (cyclin dependent kinase inhibitor 1C) | 1 | 1.01 | 0.92 | 0.6 | 1.51 | inactive
DNAJC9 (DnaJ heat shock protein family (Hsp40) member C9) | 1 | 0.65 | 0.71 | 0.8 | 0.44 | inactive
BPIFA2 (BPI fold containing family A member 2) | 1 | 1.06 | 0.85 | 1.29 | 1.03 | inactive
RPL35A (ribosomal protein L35a) | 1 | -2.23 | -2.17 | -2.31 | -2.2 | inactive
FBXL9P (F-box and leucine rich repeat protein 9, pseudogene) | 1 | -0.19 | -0.29 | -0.25 | -0.03 | inactive
MOSPD2 (motile sperm domain containing 2) | 1 | -0.7 | -1 | -0.41 | – | inactive
TMEM18 (transmembrane protein 18) | 1 | 0.34 | -0.1 | 0.42 | 0.7 | inactive
TBC1D9 (TBC1 domain family member 9) | 1 | -0.43 | 0.11 | -0.77 | -0.62 | inactive
HVCN1 (hydrogen voltage gated channel 1) | 1 | 1.21 | 1.36 | 1.3 | 0.99 | inactive
KIRREL2 (kirre like nephrin family adhesion molecule 2) | 1 | 1.06 | 0.98 | 1.08 | 1.12 | inactive
TTLL3 (tubulin tyrosine ligase like 3) | 1 | -0.83 | -0.93 | -0.61 | -0.95 | inactive
ADTRP (androgen dependent TFPI regulating protein) | 1 | -0.52 | -0.35 | -0.3 | -0.9 | inactive
LY6H (lymphocyte antigen 6 family member H) | 1 | -0.02 | 0.07 | 0 | -0.12 | inactive
NCF4 (neutrophil cytosolic factor 4) | 1 | -0.2 | -0.02 | -0.36 | -0.23 | inactive
IQCF5 (IQ motif containing F5) | 1 | -0.76 | -0.74 | -0.8 | -0.76 | inactive
ANXA5 (annexin A5) | 1 | 0.09 | -0.07 | 0.49 | -0.15 | inactive
FOXRED2 (FAD dependent oxidoreductase domain containing 2) | 1 | 0.51 | 0.35 | 0.32 | 0.85 | inactive
CATSPERB (catsper channel auxiliary subunit beta) | 1 | -0.61 | -0.69 | -0.58 | -0.55 | inactive
ACSM4 (acyl-CoA synthetase medium chain family member 4) | 1 | 0.1 | 0.63 | -0.32 | -0.02 | inactive
GLUD2 (glutamate dehydrogenase 2) | 1 | -0.44 | -0.45 | -0.48 | -0.38 | inactive
HMCES (5-hydroxymethylcytosine binding, ES cell specific) | 1 | 0.6 | 0.36 | 0.69 | 0.76 | inactive
CEP112 (centrosomal protein 112) | 1 | 0.2 | 0.54 | 0.19 | -0.12 | inactive
TRAPPC1 (trafficking protein particle complex subunit 1) | 1 | 1.53 | 1.67 | 1.72 | 1.19 | inactive
CBLIF (cobalamin binding intrinsic factor) | 1 | 0.59 | 0.9 | 0.3 | 0.57 | inactive
CXorf65 (chromosome X open reading frame 65) | 1 | -0.31 | -0.05 | -0.42 | -0.47 | inactive
METTL9 (methyltransferase 9, His-X-His N1(pi)-histidine) | 1 | -0.17 | -0.61 | 0.19 | -0.08 | inactive
TBC1D27P (TBC1 domain family member 27, pseudogene) | 1 | -2.21 | -2.23 | -2.33 | -2.07 | inactive
LOC150371 (retired record) | 1 | 0.19 | 0.29 | 0.34 | -0.07 | inactive
GAS8-AS1 (GAS8 antisense RNA 1) | 1 | -0.52 | -0.21 | -0.51 | -0.84 | inactive
FSD1L (fibronectin type III and SPRY domain containing 1 like) | 1 | 0.85 | 0.93 | 0.74 | 0.87 | inactive
FSD1L (fibronectin type III and SPRY domain containing 1 like) | 2 | -0.11 | -0.52 | 0.14 | 0.04 | inactive
SENP1 (SUMO specific peptidase 1) | 1 | -0.68 | -0.43 | -1.06 | -0.55 | inactive
ZNF442 (zinc finger protein 442) | 1 | -0.18 | -0.1 | 0.25 | -0.68 | inactive
ABHD14B (abhydrolase domain containing 14B) | 1 | -0.27 | -0.54 | -0.29 | 0.02 | inactive

6 of these entries, reformatted:
{"target gene":"NXF5 (nuclear RNA export factor 5)","reagent":1,"mean z-score":-1.69,"z-score, replicate A":-1.61,"z-score, replicate B":-1.59,"z-score, replicate C":-1.87,"call":"inactive"}
{"target gene":"GBP7 (guanylate binding protein 7)","reagent":1,"mean z-score":-0.21,"z-score, replicate A":-0.26,"z-score, replicate B":-0.34,"z-score, replicate C":-0.03,"call":"inactive"}
{"target gene":"MAPRE3 (microtubule associated protein RP/EB family member 3)","reagent":1,"mean z-score":-0.73,"z-score, replicate A":-0.63,"z-score, replicate B":-1.05,"z-score, replicate C":-0.49,"call":"inactive"}
{"target gene":"PIERCE1 (piercer of microtubule wall 1)","reagent":1,"mean z-score":-0.28,"z-score, replicate A":-0.63,"z-score, replicate B":-0.37,"z-score, replicate C":0.16,"call":"inactive"}
{"target gene":"SCML4 (Scm polycomb group protein like 4)","reagent":1,"mean z-score":1.1,"z-score, replicate A":1.37,"z-score, replicate B":0.95,"z-score, replicate C":0.99,"call":"inactive"}
{"target gene":"TEX14BP (testis expressed 14B, pseudogene)","reagent":1,"mean z-score":-1.28,"z-score, replicate A":-0.67,"z-score, replicate B":-1.99,"z-score, replicate C":-1.17,"call":"inactive"}
